Biological target: BG505 SOSIP.664 P313W (HIV-1 strain BG505)
Assay: SPR

For “soluble CD4 (from UniProt P01730) (receptor)”, the stoichiometry N (CD4 per trimer) was 3.
